Some of the results follow. These assays gave more results; the selection is not random. The source made the active and inactive calls. No cut-off for these calls is given here.
Molecular target: Nonstructural protein 1 (Influenza A virus) (UniProt Q194T2)
Test: qHTS Assay for Inhibitors of Influenza NS1 Protein Function.
Format: functional
Settings: Influenza A virus (A/WSN/1933(H1N1))

Row | SMILES | Potency
1 | O=[N+]([O-])c1ccc2nc3c([N+](=O)[O-])cc([N+](=O)[O-])cc3c(O)c2c1 | inactive
2 | O=[N+]([O-])c1cccc2[nH]nnc12 | inactive
3 | C[C@@H](O)CC(C)(C)N.Oc1c(Cl)c(Cl)c(Cl)c(Cl)c1Cl | inactive
4 | C=C(C)CNCC(=C)C.Oc1c(Cl)c(Cl)c(Cl)c(Cl)c1Cl | inactive
5 | Cc1c2no[n+]([O-])c2c(C)[n+]([O-])[n+]1[O-] | inactive
6 | O=[As](O)(c1cccs1)c1cccs1 | inactive
7 | O=P(Nc1nccs1)(c1ccccc1)c1nc2ccccc2s1 (stereo not drawn) | inactive
8 | O=[N+]([O-])c1cc([N+](=O)[O-])c(-c2cc[nH]n2)s1 | inactive
9 | O=[N+]([O-])c1ccc(O)c(/C=N/Nc2ccc([N+](=O)[O-])cc2[N+](=O)[O-])c1 | inactive
10 | CC(=O)NC(SC(=S)N(C)C)C(Cl)(Cl)Cl (stereo not drawn) | inactive
11 | CC1CCN(C(=O)Oc2c(Cl)cc(Cl)c3cccnc23)CC1 | inactive
12 | NCC(O)CN.Oc1c(Cl)c(Cl)c(Cl)c(Cl)c1Cl | inactive
13 | CCc1nc2c([nH]1)c1no[n+]([O-])c1c1no[n+]([O-])c21 | inactive

Source: ChEMBL document CHEMBL1201862, “PubChem BioAssay data set” (2004)
